Tested on: SHIV
Test: p27 antigen capture in SHIV infected cells
Details: 0.1, 1, 10 or 100 nM drug prior to infection

Question: With c1ccc(NCc2ccc(CNc3ccccn3)cc2)nc1 as the compound, how does the “SHIV infection (p27 antigen levels)” value read?
Answer: inhibited SHIV infection at all concentrations tested

Source: US8080659B2, “CXCR4 antagonists including diazine and triazine structures for the treatment of medical disorders” (Emory University, priority 2006, dated 2011)
